Pooled drug test results. Numbers come from NIAID ChemDB, via PubChem.

Shared fields: tests in culture; organism: Human cytomegalovirus; cell line: HFF; endpoint: EC50

ECn is the concentration giving n% inhibition of infection, replication or growth. Conditions beyond the fields shown may differ between rows.

SMILES	strain or isolate	method	result
OC[C@@H]1O[C@@H](n2c(Cl)nc3cc(Cl)c(Cl)cc32)[C@H](O)[C@@H]1O	TOWNE	virus yield	<5.9 µM
Cn1cc(C(=O)NCc2ccc(Cl)cc2)c(=O)c2cc(CN3CCOCC3)ccc21	HA	plaque count	1 µM
OC[C@H]1O[C@@H](n2c(Br)nc3cc(Cl)c(Cl)cc32)[C@H](O)[C@@H]1O	R56 (BDCRB-resistant)	plaque count	17 µM
Nc1ccn(C[C@@H](CO)OCP(=O)(O)O)c(=O)n1	VR4760 (foscarnet-resistant)	plaque count	0.3 µM
Nc1nc2c(ncn2COC(CO)CO)c(=O)[nH]1	CH	plaque count	4.3 µM
Nc1nc2c(ncn2C=C2CC2CO)c(=O)[nH]1	C8704/9-1-4	plaque count	2.7 µM
OC[C@H]1O[C@@H](n2c(Br)nc3cc(Cl)c(Cl)cc32)[C@H](O)[C@@H]1O	759RD100 (drug-resistant)	plaque count	0.4 µM
Nc1nc2c(ncn2COC(CO)CO)c(=O)[nH]1	D10 (BDCRB-resistant)	plaque count	2.7 µM
CCCCCCCCCCCCOCCCOP(=O)(O)CO[C@H](CO)Cn1ccc(N)nc1=O	TOWNE	plaque count	0.02 µM
O=C(NCc1ccc(Cl)cc1)c1cn2c3c(cc(CN4CCOCC4)cc3c1=O)OC(c1cccnc1)C2	Coffman	plaque count	5.2 µM
OC[C@H]1O[C@@H](n2c(Br)nc3cc(Cl)c(Cl)cc32)[C@H](O)[C@@H]1O	TOWNE	virus yield	<0.31 µM
C[C@H]1O[C@@H](n2c(Cl)nc3cc(Cl)c(Cl)cc32)[C@H](O)C1O	Isolate C4 mutations D344E + Q204R	plaque count	13 µM
Cn1cc(C(=O)NCc2ccc(Cl)cc2)c(=O)c2cc(CN3CCOCC3)ccc21	AD169	plaque count	6.4 µM
COC(=O)[C@H](C)NP(=O)(OC[C@H]1C/C1=C/n1cnc2c(N)nc(N)nc21)Oc1ccccc1	AD169	cytopathic effect	11.2 µM
O[C@@H]1[C@H](O)[C@H](O)CO[C@H]1n1c(Br)nc2cc(Cl)c(Cl)cc21	Toledo	plaque count	5.3 µM
O=C(NCCc1ccccc1)C1=Cc2ccncc2CC1	TOWNE	plaque count	12.9 µM
CCCCCCCC/C=C\CCCCCCCCOCCOP(=O)(O)CO[C@H](CO)Cn1ccc(N)nc1=O	DAVIS	plaque count	0.005 µM
Nc1nc2c(ncn2COC(CO)CO)c(=O)[nH]1	TOWNE	plaque count	0.75 µg/mL
Nc1nc2c(ncn2COC(CO)CO)c(=O)[nH]1	C4 (BDCRB- maribavir-resistant)	plaque count	12 µM
Nc1nc2c(ncn2C[C@@H]2CC[C@@H](P(=O)(O)O)O2)c(=O)[nH]1	4760RECPOLA1-1-1 (foscarnet-resistant)	plaque count	0.2 µg/mL
CCCCCCCCCCCCCCCCCCOC[C@H](COP(=O)(O)CO[C@H](CO)Cn1ccc(N)nc1=O)OCc1ccccc1	AD169	plaque count	0.003 µM
Nc1nc2c(ncn2/C=C2/CC2(CO)CO)c(=O)[nH]1	C8805 37-1-1 (ganciclovir- foscarnet-resistant)	plaque count	2.7 µM
Nc1nc2c(ncn2COC(CO)CO)c(=O)[nH]1	Isolate B11 mutation D344E	plaque count	3.1 µM
C[C@@H]1O[C@@H](n2c(Cl)nc3cc(Cl)c(Cl)cc32)[C@H](O)[C@@H]1O	2916 (bdcrb maribavir-resistant)	virus yield	0.7 µM
CC(C)Oc1ccccc1CNC(=O)c1ccc2cnccc2n1	D-10 C4	plaque count	0.04 µM
CCCCCCCC/C=C\CCCCCCCOCCCOP(=O)(O)CO[C@H](CO)Cn1ccc(N)nc1=O	VR4760 (foscarnet-resistant)	plaque count	0.002 µM
COc1ccccc1CNC(=O)C1=Cc2ccncc2CC1	TOWNE	plaque count	9.04 µM
Nc1nc(NC2CC2)c2ncn(C=C3CC3CO)c2n1	C9209/1-4-4	plaque count	6.6 µM

Repeating the final 2 entries:

COc1ccccc1CNC(=O)C1=Cc2ccncc2CC1 ; strain or isolate: TOWNE ; method: plaque count ; result: 9.04 µM
Nc1nc(NC2CC2)c2ncn(C=C3CC3CO)c2n1 ; strain or isolate: C9209/1-4-4 ; method: plaque count ; result: 6.6 µM